PubChem BioAssay AID1259414, Drosophila RNAi Screening Center, 2018
Test: 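Genome-wide screen for host control of endosymbiont load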 (primary screen). System: Drosophila JW18 cells infected with Wolbachia. Reagents: long dsRNA against Drosophila genes, 0.25 µg dsRNA per well of a 384-well plate. Time to read-out: 5 days. Treatment: cells persistently infected with Wolbachia before knock-down; no added drug. Measured: 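Automated imaging of bacterial rRNA staining divided by host cell count, reported as plate-normalised robust z-score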. Direction: Wolbachia per cell robust z: higher = more Wolbachia per host cell than the plate typical. Hit rule: 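Hit when robust z is 1.5 or more, or -1.5 or less, in at least two of three replicates; excludes dsRNAs with several or no targets, genes not expressed in JW18 and well A1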.
In all, the deposit lists about 24,000 reagents; this is an unselected part of those that have a named target and a result. Over the whole deposit, about 1,210 (5%) got an active call. 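Inactive calls also include excluded dsRNAs with several or no targets, genes unexpressed in JW18, and well A1, regardless of score.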 Entries without a mark were called inactive. Reagents against one gene are numbered here.

gene	dsRNA no.	Wolbachia per cell robust z, rep 1	Wolbachia per cell robust z, rep 2	Wolbachia per cell robust z, rep 3
mthl5	1	0.817	1.46	-0.557
ckn	1	-6.8 (active)	-1.83	-8.99
CG32625	1	1.28	0.851	-0.853
CG32625	2	-0.0535	-0.699	1.05
CG5149	1	-0.775	-0.0376	0.994
CG5149	2	1.77	1.25	1.33
mt:CoIII	1	0.284	-1.85	0.907
Gprk1	1	-0.506	-0.593	-0.697
Gprk1	2	1	-0.116	-10.5
Gpo3	1	-0.995	-0.402	-0.649
CG33474	1	-1.14	-1.61	0.181
side-VII	1	-0.337	0.157	1.5
C901	1	0.599	-0.106	0.951
C901	2	1.07	-0.0894	1.29
CG14712	1	0.525	0.786	1.03
Nipped-B	1	1.48	1.49	1.31
Nipped-B	2	1.02 (active)	3.33	5.32
RabX2	1	-2.46	-1.31	-0.01
CadN2	1	-1.38	0.209	0.0774
CadN2	2	-0.363	-0.671	-1.63
CadN2	3	-0.196	-0.329	0.0379
Gr28a	1	-1.14	0.397	2.02
Mtmr6	1	-5.43 (active)	-0.0211	-2.7
Mtmr6	2	-0.357	-0.0515	-0.84
CG33189	1	-0.0897	0.896	-0.989
CG33189	2	-0.175	-0.143	1.51
SkpB	1	-0.168	0.0761	0.362
SkpB	2	0.768	-0.454	0.498
